Compound potency records, mixed from different reports. Data source: NIAID ChemDB in PubChem.

Common to all: tests in culture; agent: Mycobacterium tuberculosis

ECn is the concentration giving n% inhibition of infection, replication or growth. Blank or dashed fields: not listed here. Lines come from different laboratories, so protocols vary. Two numbers with a dash give a range or band. Inhibition is in % at the dose shown (toxicity tests: loss of growth or viability). MIC bound comes from a single tested concentration.

structure	tested at	method	read-out	changes	strain or isolate	value
O=c1c2ccccc2nc2n1CCc1c-2[nH]c2ccccc12	-	broth dilution / resazurin	MIC	-	H37Rv	54 µM
O=C1CCCCc2ccc(O)c(c2)Oc2ccc(cc2O)CC1	-	broth dilution	MIC	-	H37Rv	200 µg/mL
CCN(CC)CC(=O)Nc1ccc(C)c(Cl)c1	-	BACTEC	MIC bound	-	H37Rv	>12.5 µg/mL
Cc1ccc(O)c(C(=O)Nc2ccc(C#N)cc2)c1	-	-	MIC	-	CNCTC MY331/88	500 µM
CCN(CC)CCCNc1nccc2c(C)c3c(cc12)c1cnccc1n3C	6.25 µg/mL	resazurin	inhibition	-	H37Rv	87%
CCOC(=O)c1c(NC(=O)c2c(F)c(F)c(F)c(F)c2F)sc2c1CCNC2=O	-	turbidity	MIC	-	ATCC 35822	1.4 µM
COc1ccc(C(=O)Nc2cccc(-c3csc(NC(=O)c4ccc([N+](=O)[O-])o4)n3)c2)cc1	1 µM	-	inhibition	-	H37Ra	<0%
CC(O)C1C(=O)N2C(C(=O)O)C=C(SC3CN(C4=NCCC4)C3)C12	-	-	MIC	-	H37Rv	0.5–1 µg/mL
N#Cc1c(NC(=O)c2c(F)c(F)c(F)c(F)c2F)sc2c1CCOC2	-	turbidity	MIC	-	ATCC35838	3.4 µM
CNC(=O)Nc1nc2ccccc2[nH]1	0.5 µM	BACTEC	inhibition	-	-	0%
COc1cc(=O)n(C)c2ccccc12	-	broth dilution / resazurin	MIC	-	H37Rv	>2000 µg/mL
COc1ccc2cc1Oc1cc(ccc1OC/C=C(\C)CCC=C(C)C)CCC(=O)CCCC2	-	broth dilution	MIC	-	H37Rv	>200 µg/mL
CN1N=CSC12C(=O)N(c1ccc(Cl)cc1)C(=O)N2c1ccc(Cl)cc1	12.8 µg/mL	BACTEC	inhibition	-	H37Rv	36%
Clc1ccc(N=c2cc3n(-c4ccc(Cl)cc4)c4ccccc4nc-3cc2Nc2ccc(Cl)cc2)cc1	-	-	MIC	-	H37Rv	3.3 µg/mL
CCOc1ccc(Nc2nc(-c3ccccn3)cs2)nc1	-	fluorescence	EC90	-	H37Rv	62 µM
CCOC(=O)NC(CC)c1ccc2oc3ccccc3c2c1	12.5 µg/mL	BACTEC	inhibition	-	H37Rv	1%
NCC[C@H](O)C(=O)N[C@@H]1C[C@H](N)[C@@H](O[C@H]2O[C@H](CN)[C@@H](O)[C@H](O)[C@H]2O)[C@H](O)[C@H]1O[C@H]1O[C@H](CO)[C@@H](O)[C@H](N)[C@H]1O	-	-	MIC	-	Isolate CKN64-301 (rrs A1401G mutation)	>64 µg/mL
CCN(CCNc1ccc(C)c2sc3ccccc3c(=O)c12)CC(C)(C)O	-	BACTEC	MIC bound	-	H37Rv	≤12.5 µg/mL
O=c1oc2ccccc2c(O)c1C1=CC(c2ccc(Cl)cc2)Sc2ccccc2N1	-	resazurin	MIC	-	H37Rv	<6.25 µg/mL
COC(=O)/C=C/c1cc(OC)c2oc(-c3ccc4c(c3)OCO4)cc2c1	-	broth dilution / turbidity	MIC	-	H37Ra ATCC 25177	>50 µg/mL
NC[C@H]1O[C@H](O[C@H]2[C@H](O)[C@@H](O[C@H]3O[C@H](CO)[C@@H](O)[C@H](N)[C@H]3O)[C@H](N)C[C@@H]2N)[C@H](O)[C@@H](O)[C@@H]1O	-	-	MIC	-	-	2–4 µg/mL
COc1ccc2cc1Oc1cc(ccc1OC)CCC(NC1CCCCC1)CCCC2	-	broth dilution	MIC	-	H37Rv	50 µg/mL
COc1ccc(C2CC(=O)c3c(cc(OC)c(OC)c3OC)O2)cc1	-	-	MIC	-	H37Ra	>581.4 µM
COc1ccc2cc1Oc1cc(ccc1OC)CC/C(=N\O)CCCC2	-	broth dilution	MIC	-	H37Rv	>200 µg/mL
O=c1oc2ccccc2c(O)c1C1=CC(c2ccc([N+](=O)[O-])cc2)Sc2ccccc2N1	-	resazurin	MIC	-	H37Rv	<6.25 µg/mL
Cc1ccc(-c2c([N+](=O)[O-])c3ccccn3c2C#N)cc1	-	agar	MIC	-	H37Rv	45.1 µM
O=c1oc2ccccc2c(O)c1C1=CC(c2c[nH]c3ccccc23)Sc2ccccc2N1	-	resazurin	MIC	-	H37Rv	<6.25 µg/mL
CCOC(=O)CSc1nnc(-c2ccco2)n1CC	-	-	EC50	-	H37Rv	>6.25 µg/mL
O=c1oc2ccccc2c(O)c1C1=CC(c2ccccc2Cl)Sc2ccccc2N1	-	resazurin	MIC	-	H37Rv	<6.25 µg/mL
C[C@]1(/C=C/Cl)C[C@](Cl)(CBr)[C@@H](Br)C[C@H]1Cl	-	-	MIC	-	-	32 µg/mL
CCOC(=O)NC([N-][n+]1ccccc1)c1ccccc1	12.5 µg/mL	BACTEC	inhibition	-	H37Rv	0%
NNC(=O)c1ccncc1	-	resazurin	MIC	Rv3405c c190t	Ty1	0.025 µg/mL
CC(C)=CC1C(C(=O)O)C1(C)C	128 µg/mL	BACTEC	inhibition	-	H37Rv	70%
CCCC/C=C/CCCCCCCCCCCCCc1c(OC(C)=O)c(OC(C)=O)c(C)c(OC(C)=O)c1OC(C)=O	-	BACTEC	MIC	-	MDR	40 µg/mL
CCOC(=O)c1c(NC(=O)c2c(F)c(F)c(F)c(F)c2F)sc2c1CCOC2	-	turbidity	EC50	-	ATCC 35822	0.12 µM
O=C1C=C(Nc2ccccc2)c2ccccc2C1=O	-	resazurin	MIC	-	H37Rv	3.13 µg/mL
CCn1c(SCC(=O)N/N=C/c2cccc(OC)c2)nnc1-c1ccco1	-	-	MIC	-	H37Rv	>6.25 µg/mL
CCN1CCc2c(sc(NC(=O)c3c(F)c(F)c(F)c(F)c3F)c2C(=O)NC)C1	-	turbidity	MIC	rpoB S522L mutant	H37Rv	4 µM
CCCCCCCCOc1ccc2cc1Oc1cc(ccc1OC)CCCCC(=O)CC2	-	broth dilution	MIC	-	H37Rv	>200 µg/mL
COc1ccc(P2(=S)Oc3ccc(C(c4ccccc4)(c4ccccc4)c4ccccc4)cc3O2)cc1	12.5 µg/mL	BACTEC	inhibition	-	H37Rv	7%
COc1cc2ccc1Oc1cc(ccc1OC)CCCCC(=O)CC2	-	broth dilution	MIC	-	H37Rv	>200 µg/mL
COc1ccc(C(=O)/C=C/c2ccc(O)cc2)c(OC)c1OC	-	-	MIC	-	H37Ra	>606 µM
COc1ccc(-c2c([N+](=O)[O-])c3ccccn3c2C#N)cc1	-	agar	MIC	-	H37Rv	85 µM
Nc1nccnc1C(=O)O	12.5 µg/mL	BACTEC	inhibition	-	H37Rv	3%
NNC(=O)c1ccncc1	-	-	MIC	-	5175	0.04–0.05 µg/mL
CC1COc2c(N3CCN(C)CC3)c(F)cc3c(=O)c(C(=O)O)cn1c23	1 µg/mL	-	inhibition	-	55 isolates	76%
Cc1ccc(C)c2c(O)c(C3=Nc4ccccc4NC(c4cccc(O)c4)C3)c(=O)oc12	-	resazurin	MIC	-	H37Rv	>6.25 µg/mL
O=C(Nc1ccc(F)cc1)c1cc(Br)ccc1O	-	-	MIC	-	CNCTC MY331/88	8 µM
CCN(CC)CC.NS(=O)(=O)c1ccc(NC(=S)S)cc1	-	BACTEC	MIC bound	-	H37Rv	≤128 µg/mL
Cc1ccc(C(N)=S)cc1	-	-	MIC	-	H37Rv (INH-resistant)	512 µM
NNC(=O)c1ccncc1	-	-	MIC	-	H37Rv	0.031–0.063 µg/mL
CO[C@H]1/C=C/O[C@@]2(C)Oc3c(C)c(O)c4c(O)c(c(/C=N/N5CCN(C)CC5)c(O)c4c3C2=O)NC(=O)/C(C)=C\C=C\[C@H](C)[C@H](O)[C@@H](C)[C@@H](O)[C@@H](C)[C@H](OC(C)=O)[C@@H]1C	-	-	MIC	-	PR118	0.08 µg/mL
CCOC(=O)c1c(N)sc2c1CCN(CC)C2	-	resazurin	MIC	-	H37Rv	>100 µg/mL
COC(=O)N1C(c2ccccc2)C=CC(c2ccccc2)N1C(=O)OC	-	BACTEC	MIC bound	-	H37Rv	>12.5 µg/mL
COc1cccc(-c2csc(NC(=O)c3ccco3)n2)c1	10 µM	-	inhibition	-	H37Ra	<0%
CCOC(=O)c1c(-c2ccc(Cl)cc2)c([N+](=O)[O-])c2ccccn12	-	agar	MIC	-	H37Rv	9.1 µM
COc1ccc2cc1Oc1cc(ccc1OC(C)C)CCC(=O)CCCC2	-	broth dilution	MIC	-	H37Rv	25 µg/mL
CC(=O)C(=Cc1ccc(O[C@@H]2O[C@H](CO)[C@@H](O)[C@H](O)[C@H]2O)cc1)C(C)=O	6.25 µg/mL	resazurin	inhibition	-	H37Rv	6%
NC(=O)c1cnccn1	-	-	MIC	-	-	5–10 µg/mL
O=C(O)c1cc(=O)[nH]c(=O)[nH]1	-	BACTEC	MIC bound	-	H37Rv	>128 µg/mL
COc1ccc2c(c1OC)CN(C)c1c-2ccc2cc3c(cc12)OCO3	-	broth dilution / turbidity	MIC	-	H37Rv (ATCC 27294)	>50 µg/mL
C/C=C1\C(=O)O[C@]23C=C[C@@H]4C(C(=O)OC)=CO[C@H](O[C@@H]12)[C@@H]43	-	MTT	MBC	-	MDR4 clinical isolate	3.9 µg/mL
NNC(=O)c1ccncc1	-	broth dilution / turbidity	MIC	-	H37Rv (ATCC 27294)	0.03 µg/mL
CC(C)c1ccc(-c2c([N+](=O)[O-])c3ccccn3c2C#N)cc1	-	agar	MIC	-	H37Rv	40.9 µM
CCn1c(SCC(=O)N/N=C/c2ccc(OC)cc2)nnc1-c1ccco1	6.25 µg/mL	-	inhibition	-	H37Rv	18%
CC1(C)S[C@@H]2[C@H](NC(=O)[C@H](N)c3ccc(O)cc3)C(=O)N2[C@H]1C(=O)O	-	-	MIC	-	H37Rv	16–32 µg/mL
C#CCn1ncc2c(SCc3ccccc3)ncnc21	-	BACTEC	EC50	-	H37Rv	<12.5 µM
CCN1CCc2c(sc(NC(=O)c3c(F)c(F)c(F)c(F)c3F)c2C(N)=O)C1	-	low oxygen	MIC	-	-	50 µM
COC1=CC=C2Nc3nc(N)[nH]c(=O)c3SC2N1	-	BACTEC	MIC bound	-	H37Rv	>12.5 µg/mL
O=C(Nc1ccccc1)c1ccccc1O	-	-	MIC	-	CNCTC MY331/88	62.5 µM
CCNC(=O)c1c(NC(=O)c2c(F)c(F)c(F)c(F)c2F)sc2c1CCN(CC)C2	-	turbidity	EC90	gyrA mutant (D94N)	H37Rv	11 µM
CCCCCCCCCCN=c1cc2n(-c3ccc(Cl)cc3)c3ccccc3nc-2cc1Nc1ccc(Cl)cc1	-	-	MIC	-	H37Rv	2 µg/mL
COc1ccccc1C1C=C(c2c(O)c3ccccc3oc2=O)Nc2ccccc2S1	-	resazurin	MIC	-	H37Rv	<6.25 µg/mL
Cc1nc2ccccc2c(=O)o1	-	resazurin	MIC bound	-	H37Rv	>6.25 µg/mL
O=c1c2ccccc2nc2n1CCc1c-2[nH]c2ccccc12	-	broth dilution / turbidity	MIC	-	H37Rv (ATCC 27294)	>50 µg/mL
N#Cc1ccc(NC(=O)c2cc(Br)ccc2O)cc1	-	-	MIC	-	CNCTC MY331/88	2 µM
NCC[C@H](O)C(=O)N[C@@H]1C[C@H](N)[C@@H](O[C@H]2O[C@H](CN)[C@@H](O)[C@H](O)[C@H]2O)[C@H](O)[C@H]1O[C@H]1O[C@H](CO)[C@@H](O)[C@H](N)[C@H]1O	-	-	MIC	-	-	2 µg/mL
Cc1cc(/C=N/Nc2ccc3ccccc3n2)c(O)c2ncccc12	12.5 µg/mL	BACTEC	inhibition	-	H37Rv	78%
O=C(Nc1nc(-c2c(F)cc(F)cc2F)cs1)c1ccc([N+](=O)[O-])o1	10 µM	-	inhibition	-	H37Ra	<0%
CO[C@H]1/C=C/O[C@@]2(C)Oc3c(C)c(O)c4c(=O)c(c5oc6cc(N7CCN(CC(C)C)CC7)cc(=O)c6nc5c4c3=C2O)NC(=O)/C(C)=C\C=C\[C@H](C)[C@H](O)[C@@H](C)[C@@H](O)[C@@H](C)[C@H](OC(C)=O)[C@@H]1C	-	-	MBC	-	H37Rv	0.15–0.6 µg/mL
CCn1c(SCC(=O)N/N=C/C=C/c2ccc([N+](=O)[O-])o2)nnc1-c1ccco1	-	-	MIC	-	H37Rv	>6.25 µg/mL
COCOc1ccc2cc1Oc1cc(ccc1OC)CCCCC(=O)CC2	-	broth dilution	MIC	-	H37Rv	>200 µg/mL
COc1ccc(/C=C/C(=O)c2ccc(OC)c(OC)c2OC)cc1	-	-	MIC	-	H37Ra	>581.4 µM
COc1ccc2nc3cc(Cl)ccc3c(Nc3cc(CN4CCCC4)c(O)c(CN4CCCC4)c3)c2n1	-	resazurin	MIC	mmpL3 V681I	DR1	5–10 µg/mL
Cc1ccc2[nH]c(=S)n(-c3ccc(S(=O)(=O)N4CCCCC4)cc3)c(=O)c2c1	-	BACTEC	MIC bound	-	H37Rv	>12.5 µg/mL
COc1ccc2c(cnc3c4cc5c(cc4ccc23)OCO5)c1OC	-	broth dilution / turbidity	MIC	-	H37Ra ATCC 25177	>50 µg/mL
O=NNc1ccc(Sc2ccc(NN=O)nc2)cc1	-	BACTEC	MIC	-	H37Rv	≥12.5 µg/mL
CCCc1cc(C(N)=S)ccn1	-	-	MIC	-	-	0.5–1.5 µg/mL